Results of unrelated studies side by side (data: NIAID ChemDB).

Shared fields: tests in culture; organism: Hepatitis C virus

Rows are shuffled and stem from different studies. ECn is the concentration giving n% inhibition of infection, replication or growth. a–b is a range or a potency band. An empty or dashed field is not shown.

structure,endpoint,method,strain,cells,setting,value
CC(C)N(C(=O)c1ccc(C(F)(F)F)cc1F)c1cc(-c2ccc(-c3cc4ncccn4n3)cc2)sc1C(=O)O,EC50,luciferase / replicon,1a,,,0.1–0.5 µM
Nc1ncnc2c1c(C#Cc1ccc(-c3ccccn3)nc1)cn2[C@H]1C[C@H](O)[C@@H](CO)O1,EC50,replicon,1b,Huh7,genotype 1b,1 µM
O=C(O)c1ccc2c(C3CCCCC3)c3n(c2c1)CCOc1ccccc1-3,EC50,replicon,,Huh7,,0.01–1 µM
COc1ccccc1N1CCN(C(=O)CNc2ccc(S(=O)(=O)/N=C3\NC(=O)/C(=C/c4ccc(-c5ccccc5)cc4)S3)cc2)CC1,EC50,luciferase,1b,Huh 5-2,,0.79 µM
O=C(O)c1c(-c2ccc[nH]c2=O)c2c3scnc3ccc2n1Cc1ccc(F)cc1F,EC50,replicon,,,,>1.5 µM
CC(=O)N1c2cccc(O)c2NC2=C(C(=O)CC(C)(C)C2)C1c1cccs1,EC50,luciferase / reporter gene / replicon,1b,,,1.94 µM
CN1C(=O)Cn2c(c(C3CCCCC3)c3ccc(C(=O)NS(=O)(=O)N(C)C)cc32)-c2ccccc21,EC50,replicon,,Huh7,,0.01–1 µM
Nc1n[nH]c2cc(F)c(Cn3c(C(=O)O)c(-c4ccc[nH]c4=O)c4c5occc5c(F)cc43)cc12,EC50,replicon,,,,<0.5 µM
Nc1ncnc2c1c(-c1ccc(-c3cc(-c4ccccn4)nc(-c4ccccn4)c3)cc1)cn2[C@H]1C[C@H](O)[C@@H](CO)O1,EC50,replicon,1b,Huh7,genotype 1b,0.15 µM
COCC(C)N(C(=O)C1CCC(C)CC1)c1cc(-c2ccccc2)sc1C(=O)O,EC50,replicon / ELISA,1a,,,0.1–0.49 µM
CNC(=O)c1c(-c2ccc(F)cc2)oc2cc(-c3c(C)noc3C)c(OC)cc12,EC50,replicon,,Huh7,,<1 µM
Cc1cccc(Cn2c(C(=O)O)c(-c3ccc[nH]c3=O)c3c4occc4c(F)cc32)c1F,EC50,replicon,,,,<0.5 µM
O=C(C1CCCC1)N1CCC2(CCCN(c3ncc(-c4ccccc4)c(-c4ccc(Cl)cc4)n3)C2)CC1,EC50,luciferase,H77,Huh7,genotype 1a,0.477 µM
COCC(C)N(C(=O)c1ccc(Cl)cc1Cl)c1cc(-c2ccccc2)sc1C(=O)O,EC50,luciferase / replicon,1a,,,1–5 µM
CNC(=O)c1c(-c2ccc(F)cc2)oc2cc(N(CS(C)(=O)=O)c3cscn3)c(OC)cc12,EC50,replicon,,Huh7,,<1 µM
COC(=O)N[C@H](C(=O)N1CCC(c2ncc(-c3ccc(-c4ccc(-c5cnc(C6CCCN6C(=O)[C@@H](NC(=O)OC)C(C)C)[nH]5)cc4)cc3)[nH]2)C1)C(C)C,EC50,,,H77,,0.000055 µM
COC(=O)c1ccc2c(C3CCCCC3)c3n(c2c1)CC(C(=O)O)=C(C)c1ccncc1-3,EC50,replicon,,Huh7,,1–10 µM
O=C(NS(=O)(=O)C1CC1)c1c(-c2ccc[nH]c2=O)c2c3occc3c(F)cc2n1Cc1cc(C(O)CO)ccc1F,EC50,replicon,,,,<0.5 µM
Cc1cc(C)n2nc(CC3=C(O)CC(CCc4ccc(C(C)(C)C#N)c(Cl)c4)(C4CCCC4)OC3=O)nc2n1,EC50,replicon,M423T,,,7.3 µM
Nc1ccc(S(=O)(=O)/N=C2/NC(=O)/C(=C/c3ccc(-c4ccccc4)cc3)S2)cc1,EC50,luciferase,1b,Huh 5-2,,>115 µM
COCCN(C(=O)c1ccc(Cl)cc1F)c1cc(-c2ccc(-c3cc4ncccn4n3)cc2)sc1C(=O)O,EC50,luciferase / replicon,1b,,,0.005–0.01 µM
CC1CCC(C(=O)N(CC2CCOCC2)c2cc(-c3ccc(-c4cc5ncccc5o4)cc3)sc2C(=O)O)CC1,EC50,replicon / ELISA,1b,,,0.001–0.0049 µM
CCOC(=O)c1cc2ccccc2c2c(C3CCCCC3)c3ccc(C(=O)OC)cc3n12,EC50,replicon,,Huh7,,>10 µM
O=C(O)c1sc(-c2ccc(-c3cn4ccccc4n3)cc2)cc1N(C(=O)C1CCC(C(F)(F)F)CC1)C1CCOCC1,EC50,replicon / ELISA,1b,,,0.05–0.099 µM
CCOC(=O)/C=C/c1ccc(NC(=O)C2(NC(=O)c3ccc4c(C5CCCCC5)c5n(c4c3)CCN(C(=O)OC(C)(C)C)c3ccccc3-5)CCCC2)cc1,EC50,replicon,,Huh7,,0.01–1 µM
CS(=O)(=O)NC(=O)c1c(-c2ccc[nH]c2=O)c2c3ncsc3ccc2n1Cc1ccccc1F,EC50,replicon,,,,<0.5 µM
O=C1N[C@H]2C(=O)N[C@H]3C(=O)N[C@H](C(=O)N[C@H](C(=O)O)c4cc(O)cc(O)c4-c4cc3ccc4O)[C@H](O)c3ccc(c(Cl)c3)Oc3cc2cc(c3O)Oc2ccc(cc2Cl)C[C@H]2NC(=O)[C@H](Nc3ccc(-c4ccccc4)cc3)c3ccc(O)c(c3)Oc3cc(O)cc(c3)[C@@H]1NC2=O,EC50,luciferase,Huh 9-13,,,15 µM
CCNC(=O)N(CCCN(C)C)C(=O)c1ccc2c(C3CCCCC3)c3n(c2c1)CCCc1ccccc1-3,EC50,replicon,,Huh7,,1–10 µM
COC(=O)[C@H](C)NP(=O)(OC[C@H]1O[C@@H](n2ccc(=O)[nH]c2=O)[C@](C)(F)[C@@H]1O)Oc1ccccc1,EC90,replicon / PCR,WILD TYPE,,,1.6 µM
CC(C)C(=O)N1c2cccc(O)c2NC2=C(C(=O)CC(C)(C(C)C)C2)C1c1ccc(OCc2ccccc2)cc1F,EC50,luciferase / reporter gene / replicon,1b,,,1.38 µM
O=C(O)c1c(-c2ccc[nH]c2=O)c2c3occc3c(F)cc2n1Cc1cc2c(=O)[nH]cnc2cc1F,EC50,replicon,,,,<0.5 µM
CNC(=O)c1c(-c2ccc(F)cc2)oc2cc(N(Cc3ccc(OC)cc3)S(C)(=O)=O)c(OC(C)C)cc12,EC50,replicon,,Huh7,,<1 µM
CC1CCC(C(=O)N(c2cc(-c3ccc(-c4cn5ccsc5n4)cc3)sc2C(=O)O)C2CCOCC2)CC1,EC50,replicon / ELISA,1b,,,0.01–0.049 µM
CN(C)C(=O)N1CCn2c(c(C3CCCCC3)c3ccc(C(=O)NS(=O)(=O)N(C)C)cc32)-c2ccccc21,EC50,replicon,,Huh7,,0.01–1 µM
CC1CCC(C(=O)N(c2cc(-c3ccc(-c4cc5ncccc5o4)cc3)sc2C(=O)O)C2CCOC2)CC1,EC50,replicon / ELISA,1b,,,0.005–0.0099 µM
CNC(=O)c1c(-c2ccc(F)cc2)oc2cc(N3CCOCC3)c(OCc3cc(C)on3)cc12,EC50,replicon,,Huh7,,<1 µM
COc1nc(N)nc2c1ncn2[C@@H]1O[C@H](COP(=O)(N[C@@H](C)C(=O)OC(C)C)Oc2ccccc2)[C@@H](O)[C@@]1(C)F,EC50,replicon,2a,,63 d,0.073 µM
COc1ccc(/C=C2\S/C(=N/S(=O)(=O)c3ccc(C)cc3)NC2=O)cc1,EC50,luciferase,1b,Huh 5-2,,>68.04 µM
CN(C)S(=O)(=O)NC(=O)c1ccc2c(C3CCCCC3)c3n(c2c1)CC(C(=O)N1CCOCC1)Cc1ccncc1-3,EC50,replicon,,Huh7,,0.01–1 µM
COCC(C)N(C(=O)C1CCC(C)CC1)c1cc(-c2ccc(-c3cc4ncccn4n3)cc2)sc1C(=O)O,EC50,replicon / ELISA,1a,,,0.005–0.0099 µM
CNC(=O)c1c(-c2ccc(F)cc2)oc2cc(N3CCOCC3)c(OCc3nsc(Cl)n3)cc12,EC50,replicon,,Huh7,,<1 µM
NC(=O)c1cc(Cn2c(C(=O)O)c(-c3ccc[nH]c3=O)c3c4occc4c(F)cc32)cs1,EC50,replicon,,,,<0.5 µM
CC1CCC(C(=O)N(c2cc(-c3ccc(-c4cc5ncccc5o4)cc3)sc2C(=O)O)C2CCOCC2)CC1,EC50,replicon / ELISA,1a,,,<0.001 µM
CNC(=O)c1c(-c2ccc(F)cc2)oc2cc(N3CCN(C)CC3)c(OC(C)C)cc12,EC50,replicon,,Huh7,,>30 µM
CC(=O)N1c2cccc(O)c2NC2=C(C(=O)CC(C)(C)C2)C1c1ccc(C(F)(F)F)cc1C(F)(F)F,EC50,luciferase / reporter gene / replicon,1b,,,7.36 µM
Cc1cc(Br)ccc1C(=O)N(c1cc(-c2ccc(-c3cn4ccccc4n3)cc2)sc1C(=O)O)C(C)C,EC50,luciferase / replicon,1a,,,0.1–0.5 µM
CC1(C)CC(=O)C2=C(C1)Nc1c(O)cccc1NC2c1ccc(OCc2ccc(F)cc2)cc1F,EC50,luciferase / reporter gene / replicon,1b,,,8.33 µM
O=C(c1ccc2[nH]ccc2c1)N1CCC2(CCCN(c3ncc(-c4ccccc4)c(-c4ccc(Cl)cc4)n3)C2)CC1,EC50,luciferase,H77,Huh7,genotype 1a,0.782 µM
CC(=O)N1c2cccc(O)c2NC2=C(C(=O)CC(C)(C)C2)C1c1ccc(OCc2ccccc2Br)cc1Cl,EC50,luciferase / reporter gene / replicon,1b,,,1.49 µM
COCC(COC)N(C(=O)C1CCC(C)CC1)c1cc(-c2ccc(-c3cc4ncccn4n3)cc2)sc1C(=O)O,EC50,replicon / ELISA,1b,,,0.001–0.0049 µM
CNC(=O)c1c(-c2ccc(F)cc2)oc2cc(C3CNC(=O)O3)c(OC)cc12,EC50,replicon,,Huh7,,<10 µM
CC(C)N(C(=O)c1ccc(Cl)cc1F)c1cc(-c2ccc(-c3cn4ccccc4n3)cc2)sc1C(=O)O,EC50,replicon / ELISA,1a,,,0.01–0.05 µM

6 of the rows above, restated:

structure | endpoint | method | strain | cells | setting | value
CC(=O)N1c2cccc(O)c2NC2=C(C(=O)CC(C)(C)C2)C1c1ccc(C(F)(F)F)cc1C(F)(F)F | EC50 | luciferase / reporter gene / replicon | 1b |  |  | 7.36 µM
CC1(C)CC(=O)C2=C(C1)Nc1c(O)cccc1NC2c1ccc(OCc2ccc(F)cc2)cc1F | EC50 | luciferase / reporter gene / replicon | 1b |  |  | 8.33 µM
CS(=O)(=O)NC(=O)c1c(-c2ccc[nH]c2=O)c2c3ncsc3ccc2n1Cc1ccccc1F | EC50 | replicon |  |  |  | <0.5 µM
CN1C(=O)Cn2c(c(C3CCCCC3)c3ccc(C(=O)NS(=O)(=O)N(C)C)cc32)-c2ccccc21 | EC50 | replicon |  | Huh7 |  | 0.01–1 µM
CCNC(=O)N(CCCN(C)C)C(=O)c1ccc2c(C3CCCCC3)c3n(c2c1)CCCc1ccccc1-3 | EC50 | replicon |  | Huh7 |  | 1–10 µM
O=C(c1ccc2[nH]ccc2c1)N1CCC2(CCCN(c3ncc(-c4ccccc4)c(-c4ccc(Cl)cc4)n3)C2)CC1 | EC50 | luciferase | H77 | Huh7 | genotype 1a | 0.782 µM